## PSTVd loop 6 mutant pool in Nicotiana benthamiana

From the data files of Wu et al. 2024, doi:10.1371/journal.ppat.1012142.

Region: loop 6 of PSTVd (intermediate strain), upper and lower strand joined, each 5' to 3', the first 5 letters being the upper strand, closing pairs included. Wild type: UGACCGCGAG. Varied positions (N): UNNNCGNNNG.

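Three N. benthamiana plants were inoculated with the whole mutant pool. Progeny were sequenced from the inoculated region (day 5), the margin of the inoculated leaf (day 10) and systemic leaves (day 12).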

Values are reads per thousand in the sample; higher means more abundant, 0 means not found.
Each value is the mean of three plants.
"Pool" is the share in the plasmid pool used as inoculum, on the same scale.
The inoculated region was read from the minus strand, the other sites from the plus strand.
For reference, wild type rose from 20.7 per thousand in the pool to 195, 198, 203 (inoculated region), 629, 591, 734 (leaf margin) and 942, 870, 868 (systemic leaves).
The authors trace changes outside the varied positions to PCR and sequencing errors or to mutation in the plant; presence does not show that a variant is infectious alone.
With 36,220-57,551 reads a sample, very low values are single reads.

sequence,pool,inoculated region,leaf margin,systemic leaves
UUAACGUGGG,0.118,0.137,0.00773,0
UAAGCGAAUG,0.235,0.113,0,0
UCUGCGACGG,0.353,0.0596,0,0
UGCUCGGUAG,0.353,0.0771,0.0169,0.0135
UUGACGCCUG,0.366,0.153,0.0246,0.00599
UCCCCGACCG,0.222,0.0956,0.0155,0
UUAUCGGCUG,0.392,0.119,0.00773,0
UCGGCGAGCG,0.235,0.0710,0,0.00684
UCGACGCCCG,0.157,0.107,0.00773,0
UAAUCGUUAG,0.405,0.102,0,0
UAGACGGACG,0.118,0.722,0.146,0
UUAACGUGUG,0.301,0.168,0,0
UCUACGCUCG,0.340,0.0829,0.00920,0
UUUUCGUUGG,0.235,0.0773,0,0
UCAUCGCACG,0.0784,0.0531,0,0
UGAACGCUGG,0.131,0.138,0.0169,0
UAAGCGCGCG,0.157,0.0353,0.0155,0
UCGGCGUGGG,0.314,0.0482,0,0
UGUACGGCUG,0.261,0.0949,0,0
UGCCCGGCAG,0.196,0.0781,0,0
UAAGCGGGGG,0.144,0.107,0.00920,0
UAAACGUGCG,0.144,0.559,0.0668,0.0195
UGGACGCGCG,0.144,0.0712,0,0
UCCACGCCAG,0.118,0.113,0.00920,0
UAGUCGCCAG,0.157,0.101,0.00773,0
UACCCGCUAG,0.0915,0.674,0.130,0
UGCACGGAAG,0.118,0.584,0.0491,0
UAUACGAACG,0.340,0.114,0.00920,0.00684
UGACGGCGGG,0.0131,0,0,0
UGUGCGAAGG,0.118,0.0886,0.00773,0
UAGACGAAAG,0.144,0.0766,0,0
UUUGCGAGCG,0.209,0.0905,0,0
UUCGCGACUG,0.222,0.101,0,0
GGACCGGUAG,0.0131,0.0297,0,0
UACCCGGCUG,0.288,0.107,0,0
UCGGCGAUAG,0.353,0.0777,0.0541,0
UGAACGAUUG,0.366,0.161,0,0
UUCACGCAUG,0.353,0.119,0,0
UAUGCGUCAG,0.248,0.757,0.00920,0
UGCCCGUGAG,0.183,0.137,0,0

Excerpt, the final 3 entries:

sequence	pool	inoculated region	leaf margin	systemic leaves
UUCACGCAUG	0.353	0.119	0	0
UAUGCGUCAG	0.248	0.757	0.00920	0
UGCCCGUGAG	0.183	0.137	0	0